The values are deposited in ChEMBL (CHEMBL3988442, “University of Dundee, Small-Polar-MMV Screening Library” (2021)).

Mtb glucose medium: 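Phenotypic screen: M. tuberculosis growth, glucose 7H9 medium, 3 days; the read-out is not stated. Compounds at 50 µM. Direction is inferred from retests: higher values go with more growth inhibition. About 69,000 compounds were tested under these conditions; 1.1% (about 760) showed 50% or more at least once.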
Mtb cholesterol medium: 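Whole-cell growth test on Mycobacterium tuberculosis, read after 4 days in a medium based on cholesterol and the lipid DPPC; the read-out is not stated. Compounds at 50 µM. Direction is inferred from retests: higher values go with more growth inhibition. About 69,000 compounds were tested under these conditions; 0.54% (about 370) showed 50% or more at least once.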

The filed quantity is “Percent Effect” (%). The controls that fix the scale are not given in the record; negative values are as filed. The entries come from a sample that favours strong results. Two or more numbers in one place are separate tests of the same structure; such repeats can differ widely. A dash means the value is not listed here; it may have been measured.

| # | Compound | Mtb glucose medium | Mtb cholesterol medium |
|---|---|---|---|
| 1 | `Cc1noc(NC(=O)c2ccccc2)n1` | -14.5 | -9.606 |
| 2 | `COCC(C)NC(=O)c1nnn(-c2ccc(Br)cc2)n1` (stereo unspecified) | 14.13 | - |
| 3 | `O=C(c1cccc(NCc2cccc(F)c2)c1)N1CCC(O)CC1` | - | 2.565 |
| 4 | `CCCNC(=O)NC(=O)CNC(C)(C)c1ccc2c(c1)OCCO2` | 71.97 and 78.37 | 69.64 |
| 5 | `O=C(NCc1ccccn1)N1CC=C(c2ccccc2)CC1` | 16.27 | -16.1 |
| 6 | `CC(C)C(=O)NCCC(=O)N1CCN(c2ccccn2)CC1` | - | 6.863 |
| 7 | `Cc1ccc(C(=O)N2CCCN(Cc3cscn3)CC2)o1` | - | 3.492 |
| 8 | `Cc1ccc(CN2CCC3(CCCN(Cc4ccc(F)c(F)c4)C3)C2)o1` (stereo unspecified) | 51.83 | - |
| 9 | `Cc1cc(N2CCCC2)c(C#N)c(C)n1` | 8.75 | - |
| 10 | `Cc1cc(C)n(-c2cncc(NCCNC(=O)C(C)C)n2)n1` | 16.35 | - |
| 11 | `CCCc1nc(N2CC[C@@H](c3ccc4c(c3)OCO4)[C@H](O)C2)no1` | - | 51.82 |
| 12 | `COc1ccc(CS(=O)(=O)CC(=O)NCC2CC2)cc1F` | 11.13 and 9.967 | -7.643 |
| 13 | `COC(=O)C1CCN(C(=O)c2cccc(NS(C)(=O)=O)c2C)CC1` | -11.67 | - |
| 14 | `O=C(Nc1nccs1)c1csc(NC2CCCC2)n1` | 71.6 and 67.57 | 54.87 |
| 15 | `Cc1cnn(CC2CCCN2Cc2ncc(-c3ccc(F)cc3)o2)c1` (stereo unspecified) | 96.79 | - |
| 16 | `CC1(C)OC(=O)N(CCCC(=O)c2ccc(F)cc2)C1=O` | 23.88 | - |
| 17 | `CC(C)(C)SCC(=O)NCCc1csc(N2CCCC2)n1` | 7.485 | - |
| 18 | `COCCCC1CCCCN1S(=O)(=O)c1cccc(C#N)c1` (stereo unspecified) | -18.7 | - |
| 19 | `O=C(Cc1cccnc1)NC1COc2ccccc2C1=O` (stereo unspecified) | -8.376 | 13.75 |
| 20 | `O=C(c1cc(COc2ccc3c(c2)OCO3)[nH]n1)N1CCCC1` | - | 34.25 |
| 21 | `CCOc1ccc(C(=O)NCc2ccnc(N3CCN(C)CC3)c2)cn1` | 6.504 and -1.057 | 3.359 |
| 22 | `Cc1nn(C)cc1C(=O)NCc1cc(N(C)C)nc2ccccc12` | 14.84 | 5.2 |
| 23 | `CSC1=Nc2c(cnn2-c2ccccc2)C2=NCCCN12` | - | 22.85 |
| 24 | `O=C(O)C(F)(F)F.[H][C@@]12CN(Cc3ccco3)C[C@]1([H])C(=O)N(c1cncnc1)C2` | 15.45 and 3.598 | - |
| 25 | `CCSc1nnc([C@@H](N)CC(C)C)o1.Cl` | 18.47 and 14.08 | 7.466 |
| 26 | `CN1N=C(C(=O)NCc2ccc3c(c2)CCCN3C)CCC1=O` | 12.25 | 4.742 |
| 27 | `CC(C)Cc1cc(NC(=O)c2ccc(=O)[nH]n2)n(C)n1` | 6.383 | - |
| 28 | `O=C1OCCN1CCS(=O)(=O)c1cccc(Br)c1` | -7.049 | - |
| 29 | `O=C(NCCSC1CCCC1)c1cc(Cl)ccn1` | -22.46 | 7.7 |
| 30 | `CSc1nnc(CNC(=O)Nc2ccccc2F)n1C` | - | -9.002 and -9.887 |
| 31 | `CCOc1ncccc1CN1Cc2ncccc2C1=O` | -3.068 | - |
| 32 | `COc1cc(CNc2nc(C3CC3)no2)cc(OC)c1OC` | 20.34 | 4.124 and -6.754 |
| 33 | `CO[C@H]1CCN(c2nnc(C)s2)C[C@@H]1Cc1cccc(C)c1.O=C(O)C(F)(F)F` | 55.12 and 44.17 | 32.34 |
| 34 | `CCOc1ccc(N2CCCN=C2NC(=O)c2cccc(Cl)c2)cc1` | -18.98 | - |
| 35 | `Cc1ccc2nc(CN(C)Cc3[nH]nc4c3CCC4)[nH]c2c1C` | 27.73 | - |
| 36 | `CN1CCC(N(C)CCC(=O)N2CCC(Cc3ccc(F)cc3)CC2)C1` (stereo unspecified) | 75.41 | - |
| 37 | `CC(=O)N(C)Cc1ccc(OCc2cccs2)cc1` | 27 and 25.71 | 27.4 |
| 38 | `CN(C(=O)CC1=CCCCC1)C1CCCN(C2Cc3ccccc3C2)C1` (stereo unspecified) | 65.74 | - |
| 39 | `Cc1cc(CN2CCN(C(=O)NC(C)c3cccnc3)CC2)on1` (stereo unspecified) | 13.81 | - |
| 40 | `CN(Cc1ccc(F)cc1F)CC(C)(CO)CO` | 19.02 | - |
| 41 | `CS(=O)(=O)c1ccc(-c2cnc(C3CCCN3)cn2)cc1.Cl` (stereo unspecified) | -28.51 | -9.002 and 10.32 |
| 42 | `CC(C)CC(NC(=O)Nc1ccc(F)c(Cl)c1)C(=O)O` (stereo unspecified) | 4.658 and 0.4043 | 8.272 |
| 43 | `O=C(Cc1cccs1)Nc1cnn(C2CCOCC2)c1` | - | -0.03039 |
| 44 | `CC(NC(=O)Cn1cccn1)c1ccc2c(c1)OCCCO2` (stereo unspecified) | -30.51 | - |
| 45 | `Nc1cc(N2CCCC(COc3ccc(F)cc3)C2)nc(N)n1` (stereo unspecified) | 12.26 | 12.36 |
| 46 | `CN(CC(C)(C)C)S(=O)(=O)c1ccc(C(F)(F)F)nc1` | -0.006743 | 27.94 |

The last 6 entries again:

CS(=O)(=O)c1ccc(-c2cnc(C3CCCN3)cn2)cc1.Cl (stereo unspecified) gave Mtb glucose medium: -28.51%; Mtb cholesterol medium: -9.002% and 10.32%.
CC(C)CC(NC(=O)Nc1ccc(F)c(Cl)c1)C(=O)O (stereo unspecified) gave Mtb glucose medium: 4.658% and 0.4043%; Mtb cholesterol medium: 8.272%.
O=C(Cc1cccs1)Nc1cnn(C2CCOCC2)c1 gave Mtb cholesterol medium: -0.03039%.
CC(NC(=O)Cn1cccn1)c1ccc2c(c1)OCCCO2 (stereo unspecified) gave Mtb glucose medium: -30.51%.
Nc1cc(N2CCCC(COc3ccc(F)cc3)C2)nc(N)n1 (stereo unspecified) gave Mtb glucose medium: 12.26%; Mtb cholesterol medium: 12.36%.
CN(CC(C)(C)C)S(=O)(=O)c1ccc(C(F)(F)F)nc1 gave Mtb glucose medium: -0.006743%; Mtb cholesterol medium: 27.94%.